# Screening data, single-dose tests

Source: ChEMBL document CHEMBL3988442, “University of Dundee, Small-Polar-MMV Screening Library” (2021).

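Growth of Mycobacterium tuberculosis over 4 days (cholesterol / DPPC medium with tyloxapol); the read-out is not stated. Tested at 500 µM. The record gives no direction; compounds that gave an IC50 in retests scored well above the rest, so higher reads as more growth inhibition. Size under these conditions: about 18,000 compounds, about 900 of them at 50% or above in at least one test.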

Results are given as percent effect. How 0% and 100% were set is not recorded. Most values in the screen are low, and negative values occur. Many other results are left out here, so strong results are more common than in the screen.

With Clc1cccc2nc(N3CCNCC3)oc12 the screen gave 12.67%. Result for Cc1cccc(NC(=O)[C@@H]2CCCN2)n1 was -25.06%. For O=C(NCC1CC1)c1cccc2nn[nH]c12 the result was 81.76%. Result for COCCN(C)C(=O)Nc1cccc(Cl)c1 was 53.99%. Result for CN(CC(=O)NCc1ccccn1)S(C)(=O)=O was -21.85%. Result for CCCOC1CCCNCC1 (stereo unspecified) was -9.382%.

For CCCNC(=O)CSCc1nc(-c2ccccc2)no1 the result was 76.68%. Cc1ccc(-c2noc(CNS(C)(=O)=O)n2)cc1 read 72.04%. Cn1c(CO)nnc1SCC=Cc1ccccc1 read 56.7%. CCc1cc(C)c(C(=O)Nc2ccc(C(N)=O)nc2)o1 read 95.47%. CC(C)CNC(=O)N(C)Cc1cnn(C)c1 gave 9.024%. CS(=O)(=O)N(CC(N)=O)c1cc(Cl)cc(Cl)c1 read -13.89%.

Result for CCC(O)CNCc1ccccc1 (stereo unspecified) was 8.328%. COc1c(CNCCS(C)(=O)=O)c(C)nn1C gave 3.786%. With CN(CCCO)C(CCO)c1ccccc1 (stereo unspecified) the screen gave 0.4744%. For CN(C)CCSc1nnnn1-c1ccccc1 the result was 3.918%. CC(C)CC(=O)N1CCNCC1 read -9.792%. NC(=O)NC1CCCNC1 (stereo unspecified) gave -2.445%.

Result for CC(=O)N1CCC(C(=O)NCCc2nccn2C)CC1 was 8.247%. NCc1nc(-c2ccccn2)no1 gave 7.314%. For COCC(=O)Nc1cc(OC)c(Br)cn1 the result was -3.57%. With CCNC(=O)c1cc(-c2ccc(F)cc2)n[nH]1 the screen gave 69.54%. C=C(Br)CNC(=O)NCC(C)(O)c1ccsc1 (stereo unspecified) read 15.35%. For COC(=O)c1ccccc1NC(=O)N1CC[C@@H](O)C1 the result was -0.02539%.

Result for COc1ncccc1C(=O)NC(C)Cn1cccn1 (stereo unspecified) was -9.672%. For CC(NS(C)(=O)=O)C(=O)NC1Cc2ccccc2C1 (stereo unspecified) the result was -0.02781%. With COc1cccc(F)c1C(C)N (stereo unspecified) the screen gave 10%. Cc1ccccc1N1C(=O)C=CC1=O gave 115.8%. With CN1C[C@@H](N)C[C@H]1c1nc(C2CCOCC2)n[nH]1 the screen gave -19.75%. CCCNCCc1ccccn1 gave 7.218%.

Result for O=C(CC1COc2ccccc2O1)N1CCOCC1 (stereo unspecified) was -1.615%. Result for CC(C)CC(=O)Nc1ccc2[nH]c(=O)c(=O)[nH]c2c1 was 1.674%. For CNC(=O)CSc1nnnn1-c1ccc(C(C)C)cc1 the result was 69.16%. For CCNC(=O)NCC(C)Oc1cccc(OC)c1 (stereo unspecified) the result was 72.63%. CN(CC(=O)Nc1ccsc1)C(=O)c1ccco1 read 49.84%. Result for Cc1cc(F)ccc1NC(=O)NCC1(O)CCCNC1 (stereo unspecified) was 2.934%.

Result for O=C(c1ccccn1)N1CCC2(CCCC2)CC1 was 75.91%.

Repeated from the top, 4 entries:

compound	percent effect
Clc1cccc2nc(N3CCNCC3)oc12	12.67
Cc1cccc(NC(=O)[C@@H]2CCCN2)n1	-25.06
O=C(NCC1CC1)c1cccc2nn[nH]c12	81.76
COCCN(C)C(=O)Nc1cccc(Cl)c1	53.99